Compound potency records, mixed from different reports. Data source: NIAID ChemDB in PubChem.

Shared fields: host cell toxicity; cell line: HepG2; endpoint: CC50

Lines come from different laboratories, so protocols vary.

smiles | read by | value
Nc1ncnc2c1c(-c1cc3ccccc3o1)cn2[C@@H]1O[C@H](CO)[C@@H](O)C1(F)F | XTT | >10 µM
COc1cccc2ccc(N3CCC(c4nc(-c5ccc(C(F)(F)F)nc5)no4)CC3)nc12 | MTS | 20–50 µM
CCC/C=C/C=C/c1nc2ccc(OC)cc2n2cccc12 | MTT / absorbance | 20.1 µM
COc1ccc(F)cc1CNCCCNc1ccnc2cc(Cc3ccccc3)ccc12 | fluorescence | 7.99 µM
CC(C)C[C@@H]1NC(=O)[C@@H](CC(C)C)NC(=O)[C@H](Cc2c[nH]c3ccccc23)NC(=O)CNC(=O)[C@H](CC(N)=O)NC(=O)[C@@H](C(C)C)NC1=O | MTT | >30 µM
Cc1cc(NC(=O)c2c(C)c(C(=O)C(=O)NCC(C)(C)O)n(C)c2-c2nccs2)ccc1F | MTT | >30 µM
Brc1c(-c2ccccc2)nc2ccccn12 | luminescence | >100 µM
CC(=O)Oc1c(C(=O)OCc2ccccc2)c2c(c3ccccc13)OC(C)(C)CC2 | MTT | 25 µg/mL
Nc1ncnc2c1c(-c1ccccc1)cn2[C@@H]1O[C@H](CO)[C@@H](O)[C@H]1F | XTT | >10 µM
CCOC(=O)c1sc(NC(=O)Cc2c(F)cccc2Cl)nc1C | luminescence | >100 µM
COCCCN1c2ccccc2Sc2ccccc21 | resazurin | >32 µg/mL
NNC(=O)c1ccncc1 | MTT | >30 µM
COc1ccc(OCC(=O)Nc2sc3c(c2C(=O)NC2CCS(=O)(=O)C2)CCCC3)cc1 | luminescence | >100 µM
O=C(c1ccccc1)N1c2ccccc2Sc2ccccc21 | resazurin | >32 µg/mL
CC(C)N(Cc1ccccc1)C(=O)c1ccc(-c2ccc3c(c2)OCO3)cc1 | - | <13.5 µM
CCCCCCCCCC(=O)Nc1nc(N)nc2c1ncn2[C@H]1CO[C@@H](COP(=O)(N[C@@H](C)C(=O)OCC)Oc2ccccc2)O1 | MTS | 9.5 µM
Nc1ncnc2c1c(-c1ccccc1)cn2[C@@H]1O[C@H](CO)[C@@H](O)C1(F)F | XTT | >10 µM
O=C(O)CCN1c2ccccc2Sc2ccccc21 | resazurin | >32 µg/mL
CCCCCCCCCCCCCC(=O)Nc1nc(N)nc2c1ncn2[C@H]1CO[C@@H](COP(=O)(N[C@@H](C)C(=O)OCC)Oc2ccccc2)O1 | MTS | 57 µM
COc1ccc2nc(N3CCC(c4nc(-c5cccnc5)no4)CC3)ccc2c1 | MTS | >100 µM
Cc1cc(NC(=O)c2c(C)c(C(=O)C(=O)NC3(C)CCC(O)CC3)n(C)c2-c2nccs2)ccc1F | MTT | >30 µM
CCOC(=O)CCCCCOc1cccc(CN(C(=O)c2ccc(-c3cccc(OC(C)C)c3)cc2)C(C)C)c1 | - | >20 µM
C#Cc1cn([C@@H]2O[C@H](CO)[C@@H](O)C2(F)F)c2ncnc(N)c12 | XTT | 0.4 µM
O=C(NCc1ccccc1)c1ccc(-c2ccc3c(c2)OCO3)cc1 | - | >20 µM
CC(C)C[C@@H]1NC(=O)[C@H](Cc2c[nH]c3ccccc23)NC(=O)[C@H](CCCN=C(N)N)NC(=O)[C@H](CCCCN)NC(=O)[C@H](C(C)C)NC(=O)[C@@H](CC(C)C)NC1=O | MTT | >30 µM
Nc1ncnc2c1c(-c1ccoc1)cn2[C@@H]1O[C@H](CO)[C@@H](O)C1(F)F | XTT | >10 µM
CCOC(=O)CCCCCOc1cccc(CN(C(=O)c2ccc(-c3ccncc3)cc2)C(C)C)c1 | - | >20 µM
O=C1c2ccccc2C(=O)N1CCC(=O)N1c2ccccc2Sc2ccccc21 | resazurin | >32 µg/mL
CCCCCC(=O)Nc1nc(N)nc2c1ncn2[C@H]1CO[C@@H](COP(=O)(N[C@@H](C)C(=O)OCC)Oc2ccccc2)O1 | MTS | >100 µM
COc1ccc(F)cc1CNCCCNc1ccnc2cc(Oc3ccc(F)cc3)ccc12 | fluorescence | 6.6 µM
COc1cccc2ccc(N3CCC(c4nc(-c5cccnc5)no4)CC3)nc12 | MTS | 50–100 µM
Cc1cc(NC(=O)c2c(C)c(C(=O)C(=O)NC3CCC(S(C)(=O)=O)CC3)n(C)c2-c2ccncc2)ccc1F | MTT | >30 µM
COc1cccc(CNCCCNc2ccnc3cc(CCC(C)C)ccc23)c1O | fluorescence | 5.39 µM
N#Cc1ccc(Nc2cc(Oc3ccc(C#N)cc3)c3ccccc3n2)cc1 | MTT | ≥50 µg/mL
CCCCCCCCCCCC(=O)Nc1nc(N)nc2c1ncn2[C@H]1CO[C@@H](COP(=O)(N[C@@H](C)C(=O)OCC)Oc2ccccc2)O1 | MTS | 71 µM
Cc1c(C(=O)Nc2ccc(F)c(F)c2)c2n(c1C(=O)C(=O)N[C@@H]1COC[C@H]1N1CCOCC1)CCCC2 | MTT | >30 µM
COc1cccc2ccc(N3CCC(c4nc(-c5cccc(C(F)(F)F)c5)no4)CC3)nc12 | MTS | >100 µM
CC(C)N(Cc1cccc(OCCCCCC(=O)OC(=O)O)c1)C(=O)c1ccc(-c2cccc(-c3ccccc3)c2)cc1 | - | >20 µM
O=C(COc1ccc2ccccc2c1)Nc1ccncc1 | luminescence | >100 µM
COc1ccc(F)cc1CNCCCNc1ccnc2cc(Oc3cccc(N(C)C)c3)ccc12 | fluorescence | 3.3 µM
CCOC(=O)CC(=O)NCCc1ccc(OC)c(OC)c1 | - | >20 µM
Nc1ncnc2c1c(-c1ccco1)cn2[C@H]1O[C@H](CO)[C@@H](O)C1(F)F | XTT | >10 µM
CC(C)C[C@@H]1NC(=O)[C@H](Cc2c[nH]c3ccccc23)NC(=O)CNC(=O)[C@H](CC(N)=O)NC(=O)[C@H](C(C)C)NC(=O)[C@@H](CC(C)C)NC1=O | MTT | >30 µM
C/C=C/C=C/c1nc2ccccc2n2ccc(OCC)c12 | MTT / absorbance | 4.5 µM
N#Cc1ccc(Oc2cc(Nc3ccc(C#N)cn3)nc3ccccc23)cc1 | MTT | 39.96 µg/mL
CC1(C)CCc2c(C(=O)OCc3ccccc3)c(O)c3ccccc3c2O1 | MTT | 25 µg/mL
CCCC/C=C/C=C/c1nc2ccc(OC)cc2n2cccc12 | MTT / absorbance | 22.9 µM
Cc1c(C(=O)Nc2cccc(C#N)c2)c(C)n(C)c1C(=O)C(=O)NC1(C)CCC(O)CC1 | MTT | >30 µM
FC(F)(F)c1ccc(-c2ccc3c(NCCCNCc4ccco4)ccnc3c2)cc1 | fluorescence | 3.47 µM
CC(C)N(Cc1cccc(OCCCCCC(=O)OC(=O)O)c1)C(=O)c1ccc(-c2cccc([N+](=O)[O-])c2)cc1 | - | >20 µM
Cc1cc(NC(=O)c2c(C)c(C(=O)C(=O)NCC(C)(C)O)n(C)c2CC2CC2)ccc1F | MTT | 5–30 µM
CCOC(=O)CCCCCOc1cccc(CN(C(=O)c2ccc(-c3cccc(OCC)c3)cc2)C(C)C)c1 | - | >20 µM
O=C(COc1ccc(Cl)cc1)Nc1ccc(N2CCCCC2)c(Cl)c1 | luminescence | >100 µM
CC1(C)CCc2c(C(=O)OCc3ccc(Cl)cc3)c(O)c3ccccc3c2O1 | MTT | 50 µg/mL
Cc1cc(NC(=O)c2c(C)c(C(=O)C(=O)NC3(C)CCCN(C(=O)Nc4ccc(F)c(F)c4)C3)n(C)c2C)ccc1F | MTT | >30 µM
Nc1ncnc2c1c(-c1ccoc1)cn2[C@@H]1O[C@H](CO)[C@@H](O)[C@H]1F | XTT | >10 µM
Fc1ccc(-c2ccc3c(NCCCNCc4ccco4)ccnc3c2)cc1 | fluorescence | 7.76 µM
CC1(C)CCc2c(C(=O)Oc3ccc(I)cc3)c(O)c3ccccc3c2O1 | MTT | 100 µg/mL
CCC/C=C/C=C/c1nc2cc(OC)ccc2n2cccc12 | MTT / absorbance | 8.8 µM
CC(C)C[C@@H]1NC(=O)[C@H](Cc2c[nH]c3ccccc23)NC(=O)[C@@H](CC(C)C)NC(=O)[C@H](CCCCN)NC(=O)[C@H](C(C)C)NC(=O)[C@@H](CC(C)C)NC1=O | MTT | >30 µM

7 of the rows above, restated:

{"smiles": "CCCC/C=C/C=C/c1nc2ccc(OC)cc2n2cccc12", "read by": "MTT / absorbance", "value": "22.9 µM"}
{"smiles": "O=C1c2ccccc2C(=O)N1CCC(=O)N1c2ccccc2Sc2ccccc21", "read by": "resazurin", "value": ">32 µg/mL"}
{"smiles": "CC(C)C[C@@H]1NC(=O)[C@H](Cc2c[nH]c3ccccc23)NC(=O)[C@H](CCCN=C(N)N)NC(=O)[C@H](CCCCN)NC(=O)[C@H](C(C)C)NC(=O)[C@@H](CC(C)C)NC1=O", "read by": "MTT", "value": ">30 µM"}
{"smiles": "CCCCCCCCCCCC(=O)Nc1nc(N)nc2c1ncn2[C@H]1CO[C@@H](COP(=O)(N[C@@H](C)C(=O)OCC)Oc2ccccc2)O1", "read by": "MTS", "value": "71 µM"}
{"smiles": "CC(C)C[C@@H]1NC(=O)[C@H](Cc2c[nH]c3ccccc23)NC(=O)[C@@H](CC(C)C)NC(=O)[C@H](CCCCN)NC(=O)[C@H](C(C)C)NC(=O)[C@@H](CC(C)C)NC1=O", "read by": "MTT", "value": ">30 µM"}
{"smiles": "O=C(O)CCN1c2ccccc2Sc2ccccc21", "read by": "resazurin", "value": ">32 µg/mL"}
{"smiles": "Brc1c(-c2ccccc2)nc2ccccn12", "read by": "luminescence", "value": ">100 µM"}

CCn: concentration that lowers growth or viability of the cells by n%. Blank or dashed fields: not listed here. Two numbers with a dash give a range or band.